In publication PMC11321762:
The exact form of at least one protein or probe is not confirmed.

Molecular target: GST-PthA4 (UniProt A0AAI8ETU3)
Experiment: EMSA
Conditions: partial shift at 6, 12, 24 ug protein, 25 ng DNA; recombinant protein; protein details: GST (N-terminal, pET41a(+)); label: Cy5

“TCCCACTTTAATATATAAA (double strand) [PthA4 EBE of Cs9g12620 promoter (19 bp)]”: binds.
